Results of unrelated studies side by side (data: NIAID ChemDB).

Shared fields: tests in culture; agent: Cytomegalovirus

Rows are shuffled and stem from different studies. Two numbers with a dash give a range or band. ECn: concentration that inhibits the pathogen or its effect by n%. Blank or dashed fields: not listed here.

structure,endpoint,cell line,strain,method,result
Nc1nc(N)c2ncn(CCOCP(=O)(O)O)c2n1,MIC,-,-,-,10 µg/mL
Nc1nc2c(ncn2CCC(CO)CO)c(=O)[nH]1,EC50,-,-,-,10–100 µM
Nc1ncnc2c1ncn2CCOCP(=O)(O)O,EC50,HEL,DAVIS,cytopathic effect,70 µg/mL
Nc1nc(N)c2ncn(C[C@H]3CC[C@@H](CO)C3)c2n1,EC50,HEL,AD169,cytopathic effect,>50 µg/mL
Nc1ncnc2c1ncn2CCOCP(=O)(O)O,EC50,HEL,-,cytopathic effect,>50 µg/mL
Nc1nc(Cl)c2nnn(C[C@H]3CC[C@@H](CO)C3)c2n1,EC50,HEL,DAVIS,cytopathic effect,>200 µg/mL
O=c1[nH]c(=O)n([C@H]2C[C@H](O)[C@@H](CO)O2)cc1C1CCC1,EC50,HEL,DAVIS/AD169,plaque count,>1500 µM
O=c1[nH]cnc2c1ncn2CCOCP(=O)(O)O,EC50,HEL,DAVIS,cytopathic effect,>400 µg/mL
CCc1cn([C@H]2C[C@H](O)[C@@H](CO)S2)c(=O)[nH]c1=O,EC50,HEL,DAVIS/AD169,plaque count,>2000 µM
C[C@@H]1CC[C@H]2[C@@H](C)C(=O)O[C@@H]3OC4(C)CC[C@@H]1[C@]32OO4,EC50,HEL,DAVIS,plaque count,>50 µg/mL
O=c1ccn(CC(CO)OCP(=O)(O)O)c(=O)[nH]1,EC50,HEL,DAVIS,plaque count,25 µg/mL
Nc1ccn(C[C@@H](CO)OCP(=O)(O)O)c(=O)n1,MIC,-,DAVIS,-,1.3 µM
O=c1ccn([C@H]2C[C@H](O)[C@@H](CO)S2)c(=O)[nH]1,EC50,HEL,DAVIS/AD169,plaque count,>2000 µM
Nc1nc(N)c2nnn(C[C@H]3CC[C@@H](CO)C3)c2n1,EC50,HEL,AD169,cytopathic effect,>50 µg/mL
Nc1ncnc2c1ncn2CCOCP(=O)(O)O,MIC,-,-,-,25 µg/mL
OC[C@H]1O[C@@H](n2cnc3cc(Cl)c(Cl)cc32)[C@H](O)[C@@H]1O,EC50,-,-,-,8 µM
O=c1[nH]c(=O)n([C@H]2C[C@H](O)[C@@H](CO)S2)cc1C1CCC1,EC50,HEL,DAVIS/AD169,plaque count,>1500 µM
CC(=O)N(O)CCCCCNC(=O)CCC(=O)N(O)CCCCCNC(=O)CCC(=O)N(O)CCCCCN,EC50,HFF,-,-,9.1 µM
OC[C@H]1O[C@@H](n2c(Br)nc3cc(Cl)c(Cl)cc32)[C@H](O)[C@@H]1O,EC50,-,-,-,26 µM
C[C@H](Cn1cnc2c(N)ncnc21)OCP(=O)(O)O,EC50,-,DAVIS,cytopathic effect,>350 µM
Nc1nc(N)c2ncn(CC(CO)OCP(=O)(O)O)c2n1,EC50,HEL,AD169,cytopathic effect,10 µg/mL
Nc1nc2c(ncn2C[C@]2(CO)C[C@H]2CO)c(=O)[nH]1,EC50,-,-,-,10–100 µM
Cc1cn(C[C@@H](CO)OCP(=O)(O)O)c(=O)[nH]c1=O,EC50,HEL,AD169,cytopathic effect,200 µg/mL
C[C@H]1C[C@@H](n2cnc3c(N)ncnc32)[C@H](O)[C@@H]1O,EC50,HEL,AD169,cytopathic effect,>20 µg/mL
Nc1nc2c(ncn2C[C@H]2CC[C@@H](CO)C2)c(=O)[nH]1,EC50,HEL,AD169,cytopathic effect,>200 µg/mL

The last 3 rows once more:

| structure | endpoint | cell line | strain | method | result |
|---|---|---|---|---|---|
| Cc1cn(C[C@@H](CO)OCP(=O)(O)O)c(=O)[nH]c1=O | EC50 | HEL | AD169 | cytopathic effect | 200 µg/mL |
| C[C@H]1C[C@@H](n2cnc3c(N)ncnc32)[C@H](O)[C@@H]1O | EC50 | HEL | AD169 | cytopathic effect | >20 µg/mL |
| Nc1nc2c(ncn2C[C@H]2CC[C@@H](CO)C2)c(=O)[nH]1 | EC50 | HEL | AD169 | cytopathic effect | >200 µg/mL |